Compound potency records, mixed from different reports. Data source: NIAID ChemDB in PubChem.

All rows: whole-cell or culture tests; organism: Rhinovirus

MIC50, MIC90 and the like: level of inhibition, or share of isolates inhibited. ECn: concentration that inhibits the pathogen or its effect by n%. Inhibition is in % at the dose shown (toxicity tests: loss of growth or viability). Blank or dashed fields: not listed here. Lines come from different laboratories, so protocols vary. a–b is a range or a potency band.

{"structure": "CN(C)c1nc(C(F)(F)F)nc2c1ncn2Cc1ccc(F)cc1", "strain or isolate": "Serotype 13", "cells": "M-HELA", "read by": "plaque count", "endpoint": "inhibition", "dose": "8 µM", "value": "42%"}
{"structure": "CSc1nsc(-c2ccc(OCCc3ccccc3)cc2)c1C#N", "strain or isolate": "Serotype 59 (group B)", "cells": "HELA-OHIO", "read by": "cytopathic effect", "endpoint": "EC50", "value": ">20 µM"}
{"structure": "CCOC(=O)c1ccc(OCCCCC(=O)c2ccc(C)c(Cl)c2)cc1", "strain or isolate": "serotype 1A 1B 2 6 14 15 21 22 25 29 30 41 42 45 59 63 67 70 72 86 89", "endpoint": "MIC80", "value": ">267 µM"}
{"structure": "CSc1nsc(-c2ccc(OCCCCOc3ccc(C#N)cc3)cc2)c1C#N", "strain or isolate": "Serotype 15 (group B)", "cells": "HELA-OHIO", "read by": "cytopathic effect", "endpoint": "EC50", "value": ">2 µM"}
{"structure": "Nc1cc(S(=O)(=O)[O-])cc2cc(S(=O)(=O)[O-])ccc12", "cells": "Human amnion AV3 cells", "read by": "cytopathic effect", "endpoint": "inhibition", "dose": "5 µg/mL", "value": "5%"}
{"structure": "CSc1nsc(-c2ccc(OCCOc3ccccc3)cc2)c1C#N", "strain or isolate": "Serotype 14 (group A)", "cells": "HELA-OHIO", "read by": "cytopathic effect", "endpoint": "EC50", "value": ">20 µM"}
{"structure": "CN(C)c1nc(C(F)(F)F)nc2c1ncn2Cc1ccc(Cl)cc1Cl", "strain or isolate": "Serotype 19", "cells": "M-HELA", "read by": "plaque count", "endpoint": "inhibition", "dose": "8 µM", "value": "40%"}
{"structure": "CCOC(=O)c1ccc(OCCCCOc2ccc(-c3snc(SC)c3C#N)cc2)cc1", "strain or isolate": "Serotype 9 (group B)", "cells": "HELA-OHIO", "read by": "cytopathic effect", "endpoint": "EC50", "value": ">2 µM"}
{"structure": "CN(C)c1nc(C(F)(F)F)nc2c1ncn2Cc1ccc(Cl)c(NC=O)c1", "strain or isolate": "Serotype 4", "cells": "M-HELA", "read by": "plaque count", "endpoint": "inhibition", "dose": "8 µM", "value": "34%"}
{"structure": "CCOC(=O)c1ccc(OCCCCC(=O)c2ccccc2)cc1", "strain or isolate": "serotype 1A 1B 2 6 14 15 21 22 25 29 30 41 42 45 59 63 67 70 72 86 89", "endpoint": "MIC80", "value": ">306 µM"}
{"structure": "Nc1ccc(S(=O)(=O)[O-])c2c(S(=O)(=O)[O-])ccc(O)c12", "cells": "Human embryonic lung cells", "read by": "cytopathic effect", "endpoint": "inhibition", "dose": "50 µg/mL", "value": "80%"}
{"structure": "CCO/N=C/c1ccc(OCCC2CCN(c3ccc(Cl)nn3)CC2)cc1", "strain or isolate": "56822 (ICAM-1 receptor group 42)", "cells": "KB", "read by": "neutral red", "endpoint": "EC50", "value": "0.103 µM"}
{"structure": "CCSc1ncnc2c1ncn2[C@@H]1OC2COP(=O)(O)OC2[C@H]1O", "strain or isolate": "TYPE 1A", "endpoint": "MIC", "value": "1–3.2 µg/mL"}
{"structure": "N#Cc1ccc(OCCCCC(=O)c2ccc(Cl)cc2)cc1", "strain or isolate": "serotype 1A 1B 2 6 14 15 21 22 25 29 30 41 42 45 59 63 67 70 72 86 89", "endpoint": "MIC80", "value": ">319 µM"}
{"structure": "O=C(Nc1ccc2c(O)c(N=Nc3ccc(N=Nc4ccc(S(=O)(=O)O)cc4)cc3)c(S(=O)(=O)O)cc2c1)c1ccccc1", "cells": "Human amnion AV3 cells", "read by": "cytopathic effect", "endpoint": "inhibition", "dose": "50 µg/mL", "value": "45%"}
{"structure": "CSc1nsc(-c2ccc(OCCOc3ccc(C#N)cc3)cc2)c1C#N", "strain or isolate": "Serotype 15 (group B)", "cells": "HELA-OHIO", "read by": "cytopathic effect", "endpoint": "EC50", "value": ">2 µM"}
{"structure": "O=S(=O)(O)c1ccc2ccc(S(=O)(=O)O)cc2c1", "cells": "Human amnion AV3 cells", "read by": "cytopathic effect", "endpoint": "inhibition", "dose": "50 µg/mL", "value": "0%"}
{"structure": "Cc1ccccc1Cn1cnc2c(N(C)C)nc(C(F)(F)F)nc21", "strain or isolate": "Serotype 15", "cells": "M-HELA", "read by": "plaque count", "endpoint": "inhibition", "dose": "8 µM", "value": "14%"}
{"structure": "Cc1cc(CCCCCOc2cc(Cl)c(-c3nnc(C)o3)c(Cl)c2)on1", "strain or isolate": "Serotype 89", "endpoint": "MIC80", "value": "0.01 µg/mL"}
{"structure": "CSc1nsc(-c2ccc(OCCCc3ccccc3)cc2)c1C#N", "strain or isolate": "Serotype 72 (group A)", "cells": "HELA-OHIO", "read by": "cytopathic effect", "endpoint": "EC50", "value": ">20 µM"}
{"structure": "Fc1ccc(Cn2cnc3c(Nc4cccc(F)c4)nc(C(F)(F)F)nc32)cc1", "strain or isolate": "Serotype 5", "cells": "M-HELA", "read by": "plaque count", "endpoint": "EC50", "value": "32 µM"}
{"structure": "CSc1nsc(-c2ccc(OCCCCOc3ccccc3)cc2)c1C#N", "strain or isolate": "Serotype 59 (group B)", "cells": "HELA-OHIO", "read by": "cytopathic effect", "endpoint": "EC50", "value": ">20 µM"}
{"structure": "CN(C)c1ccc(Cn2cnc3c(N(C)C)nc(C(F)(F)F)nc32)cc1", "strain or isolate": "Serotype 31", "cells": "M-HELA", "read by": "plaque count", "endpoint": "inhibition", "dose": "8 µM", "value": "41%"}
{"structure": "Nc1ccc2cc([N+](=O)[O-])cc(S(=O)(=O)[O-])c2c1", "cells": "Human amnion AV3 cells", "read by": "cytopathic effect", "endpoint": "inhibition", "dose": "50 µg/mL", "value": "0%"}
{"structure": "Fc1cccc(Cn2cnc3c(Nc4cccc(F)c4)nc(C(F)(F)F)nc32)c1", "strain or isolate": "Serotype 5", "cells": "M-HELA", "read by": "plaque count", "endpoint": "EC50", "value": "13 µM"}
{"structure": "O=S(=O)(O)c1ccc2cc(O)c(S(=O)(=O)O)cc2c1", "cells": "Human amnion AV3 cells", "read by": "cytopathic effect", "endpoint": "inhibition", "dose": "50 µg/mL", "value": "0%"}
{"structure": "CSc1ccc(C(=O)CCCCOc2ccc(C3=NCCO3)cc2)cc1", "strain or isolate": "serotype 1A 1B 2 6 14 15 21 22 25 29 30 41 42 45 59 63 67 70 72 86 89", "endpoint": "MIC80", "value": ">271 µM"}
{"structure": "CCOC(=O)/C=C/[C@H](C[C@@H]1CCNC1=O)NC(=O)[C@@H](CC(=O)[C@@H](NC(=O)c1cc(C)on1)C(C)C)Cc1ccc(F)cc1", "strain or isolate": "Isolate 39", "cells": "OHIO HELA-I", "read by": "cytopathic effect / visual reading", "endpoint": "EC50", "value": "0.01 µg/mL"}
{"structure": "CSc1ncnc2c1ncn2[C@@H]1OC2COP(=O)(O)OC2[C@H]1O", "strain or isolate": "TYPE 8", "endpoint": "MIC", "value": "3.2 µg/mL"}
{"structure": "Cc1cc(CCCCCOc2cc(Cl)c(-c3nnco3)c(Cl)c2)on1", "strain or isolate": "Serotype 2", "endpoint": "MIC80", "value": "0.41 µg/mL"}
{"structure": "CCOC(=O)c1ccc(OCCOc2ccc(-c3snc(SC)c3C#N)cc2)cc1", "strain or isolate": "Serotype 39 (group B)", "cells": "HELA-OHIO", "read by": "cytopathic effect", "endpoint": "EC50", "value": ">2 µM"}

The first 5 rows once more:

structure	strain or isolate	cells	read by	endpoint	dose	value
CN(C)c1nc(C(F)(F)F)nc2c1ncn2Cc1ccc(F)cc1	Serotype 13	M-HELA	plaque count	inhibition	8 µM	42%
CSc1nsc(-c2ccc(OCCc3ccccc3)cc2)c1C#N	Serotype 59 (group B)	HELA-OHIO	cytopathic effect	EC50	-	>20 µM
CCOC(=O)c1ccc(OCCCCC(=O)c2ccc(C)c(Cl)c2)cc1	serotype 1A 1B 2 6 14 15 21 22 25 29 30 41 42 45 59 63 67 70 72 86 89	-	-	MIC80	-	>267 µM
CSc1nsc(-c2ccc(OCCCCOc3ccc(C#N)cc3)cc2)c1C#N	Serotype 15 (group B)	HELA-OHIO	cytopathic effect	EC50	-	>2 µM
Nc1cc(S(=O)(=O)[O-])cc2cc(S(=O)(=O)[O-])ccc12	-	Human amnion AV3 cells	cytopathic effect	inhibition	5 µg/mL	5%